Pooled drug test results. Numbers come from NIAID ChemDB, via PubChem.

Shared fields: growth or infection tests; species: Mycobacterium tuberculosis

Inhibition is in % at the dose shown (toxicity tests: loss of growth or viability).

smiles,endpoint,method,tested at,strain,changes,result
O=C([C@@H](O)CO)N1CC=C(c2c(F)cc(N3C[C@H](COc4ccon4)OC3=O)cc2F)CC1,MIC,,,linezolid resistant 8.7,T460C Cys154Arg,16 µg/mL
CCn1cc(C(=O)O)c(=O)c2cc(F)c(N3CCNCC3)cc21,MIC50,,,21 strains,,4 µg/mL
Oc1c(Cl)cc(Cl)cc1Sc1cc(Cl)cc(Cl)c1O,MIC50,,,,,32 µg/mL
CN1CCN(c2n[nH]c(N3C(=O)CS[C@@H]3c3ccc4c(c3)OCO4)n2)CC1,MIC,resazurin,,H37Rv,,<1 µg/mL
O=S1(=O)NC2CCC3NS(=O)(=O)NC4CCC(N1)N4S(=O)(=O)N23,MIC,BACTEC,,H37Rv,,≥12.5 µg/mL
O=C1/C(=C/c2ccc(Cl)cc2)COc2ccccc21,inhibition,broth dilution / resazurin,10 µg/mL,H37Rv,,45%
CCOC(=O)C1=C(C)N(c2ccc(F)c(Cl)c2)C(=O)NC1c1ccc(O)cc1,MIC,resazurin,,H37Rv,,>6.25 µg/mL
CNC1CCCN(c2c(F)cc3c(=O)c(C(=O)O)cn(C4CC4)c3c2OC)C1,MIC90,,,100 isolates,,2 µg/mL
NC(Cc1ccc(O)cc1)C(=O)N/N=C/c1ccccc1Cl,inhibition,BACTEC,12.5 µg/mL,H37Rv,,26%
CN[C@@H]1[C@H](O[C@H]2[C@H](O[C@H]3[C@H](O)[C@@H](O)[C@H](N=C(N)N)[C@@H](O)[C@@H]3N=C(N)N)O[C@@H](C)[C@]2(O)C=O)O[C@@H](CO)[C@H](O)[C@H]1O,MIC,broth dilution,,H37Rv Harlingen,,≤0.5 µg/mL
O=C(Nc1ccc(I)cc1)NC12CCC3CC(CC1C3)C2,MIC,,,H37Rv,,0.6 µg/mL
O=C(NNS(=O)(=O)O)c1ccncc1,MIC,,,BCG,,600 µg/mL
COC(=O)C1C(OC(C)=O)C(C)C(O)C(C)(O)/C=C(\C)C2=C3C(=C(C)C(=O)c4c(O)c(c(C)c(OC(C)=O)c43)NC(=O)/C(C)=C/C=C\[C@](C)(O)C(O)[C@@H](C)C1O)OCO2,MIC,,,TAC-R,,0.2 µg/mL
NNC(=O)c1cccc2ccccc12,MIC,,,BCG,,80 µg/mL
C/C(=C\COc1ccc2ccc(=O)oc2c1)C1=CC(=O)C(C)(C)O1,MIC bound,BACTEC,,H37Rv,,>12.8 µg/mL
CC1COc2c(N3CCN(C)CC3)c(F)cc3c(=O)c(C(=O)O)cn1c23,MIC,broth dilution,,Harlingen,,0.5 µg/mL
O=C(O)CCCn1nnc2c(=O)[nH][nH]c(=O)c21,inhibition,BACTEC,12.5 µg/mL,H37Rv,,0%
Cc1cccc(/C=C2\CCc3ccccc3C2=O)c1,inhibition,broth dilution / resazurin,12.5 µg/mL,H37Rv,,40%
COc1ccc([C@H]2SC(C)C(=O)N2c2nc(N3CCOCC3)n[nH]2)cc1OC,MIC,resazurin,,H37Rv,,16 µg/mL
CC(=O)NC[C@H]1CN(c2ccc(N3CCN(c4ccc([N+](=O)[O-])s4)CC3)c(F)c2)C(=O)O1,MIC,,,SGPGI,,0.5 µg/mL
CC(=O)N1C(=O)N(Cl)C(=O)C1(c1ccc(Cl)cc1)c1ccc(Cl)cc1,inhibition,BACTEC,12.5 µg/mL,H37Rv,,0%
CC1=C(C(=O)Nc2ccc(C)cc2)C(c2cccc([N+](=O)[O-])c2)NC(=O)N1c1ccc(F)c(Cl)c1,MIC,resazurin,,H37Rv,,>6.25 µg/mL
O=C1C(Cl)=C(NCC2CCCN3CCCCC23)C(=O)c2ccccc21,inhibition,BACTEC,12.5 µg/mL,H37Rv,,59%
Cc1ccc([C@H]2SC(C)C(=O)N2c2nc(N3CCN(C)CC3)n[nH]2)cc1,MIC,resazurin,,H37Rv,,<1 µg/mL
COc1ccc(C2NC(=O)N(c3ccc(F)c(Cl)c3)C(C)=C2C(=O)Nc2ccc(C)cc2)cc1,MIC,resazurin,,H37Rv,,>6.25 µg/mL
S=C(Nc1ccccn1)Nc1ncc(C2CCC2)o1,MIC,agar,,MDR clinical isolate,,6.42 µM
O=C1CS[C@H](c2ccc(Cl)cc2)N1c1nc(N2CCOCC2)n[nH]1,MIC,resazurin,,H37Rv,,1.56 µg/mL
CCC(CNNC(=O)c1ccncc1)NNC(=O)c1ccccc1,MIC,,,BCG,,0.5 µg/mL
CCn1cc(C(=O)O)c(=O)c2cc(F)c(N3CCNCC3)cc21,MIC50,,,22 isolates,,4 µg/mL
CCCC/C=C/CNNC(=O)c1ccncc1,MIC,,,BCG,,0.03 µg/mL
O=C(NCc1ccc(Cl)cc1Cl)c1nnc(-c2ccccn2)[nH]c1=O,MIC,,,H37Rv,,>32 µg/mL
Cc1cccc(NN=O)n1,MIC bound,BACTEC,,H37Rv,,>12.5 µg/mL
CC1=C(C(=O)Nc2ccc(C)cc2C)C(c2ccccc2)C(C(=O)Nc2ccc(C)cc2C)=C(C)N1,EC50,,,H37Rv,,>2.5 µg/mL
CN1CCN(CCCN2c3ccccc3Sc3ccc(C(F)(F)F)cc32)CC1,MIC50,,,,,4 µg/mL
S=C(Nc1ccc(Cl)cc1)Nc1ncc(C2CCC2)o1,MIC,agar,,H37Rv,,1.23 µM
C[C@@H]1CN(c2c(F)c(N)c3c(=O)c(C(=O)O)cn(C4CC4)c3c2F)C[C@H](C)N1,MIC90,,,100 isolates,,1 µg/mL
NC[C@@H]1O[C@H](O[C@H]2[C@@H](O)[C@H](O[C@@H]3[C@@H](O)[C@H](N)C[C@H](N)[C@H]3O[C@H]3O[C@H](CO)[C@@H](O)[C@H](O)[C@H]3N)O[C@@H]2CO)[C@H](N)[C@@H](O)[C@@H]1O,MIC50,,,,,4 µg/mL
COc1ccccc1NC(=O)C1=C(C)NC(C)=C(C(=O)Nc2ccccc2OC)C1c1ccc(SC)cc1,inhibition,,2.5 µg/mL,H37Rv,,93%
COc1cc(NC(=O)NC23CCC4CC(CC2C4)C3)cc(C(F)(F)F)c1,MIC,,,H37Rv,,0.9 µg/mL
O=C(NCc1ccc(Cl)cc1)c1nnc(-c2ccccn2)[nH]c1=O,MIC,,,H37Rv,,>32 µg/mL
CN(C)C(=N)N=C(N)N,MIC,visual reading,,H37Rv,,>15000 µM
Cc1nc(C(=O)NN)co1,MIC,BACTEC,,H37Rv,,≥12.5 µg/mL
CC1=C(C(=O)Nc2ccc(C)cc2)C(c2ccc(O)cc2)NC(=O)N1c1ccc(F)c(Cl)c1,MIC,resazurin,,H37Rv,,>6.25 µg/mL
Cc1cc(C)c(Nc2cc(C)nc(Cl)n2)c(C)c1,MIC,,,H37Ra,,>50 µg/mL
Cc1ccc(Nc2nc(C)c(C(/C=C/c3ccc4c(c3)OCO4)=N/Nc3ccc([N+](=O)[O-])cc3[N+](=O)[O-])s2)c([N+](=O)[O-])c1,MIC bound,resazurin,,H37Rv,,>6.25 µg/mL
S=C(Nc1cc(Cl)ccn1)Nc1ncc(C2CCC2)o1,MIC,agar,,MDR clinical isolate,,0.64 µM
CCOC(=O)C(CO)NC(=O)C1(NC(C)=O)CCCC1,inhibition,BACTEC,12.8 µg/mL,H37Rv,,27%
CC(C)N1CCN(c2cc3c(cc2F)c(=O)c(C(=O)O)cn3C2CC2)CC1,MIC90,,,,,0.125 µg/mL
Nc1nnc2nc(C(C(=O)c3ccccc3)c3nc4nnc(N)n4[nH]c3=O)c(=O)[nH]n12,inhibition,BACTEC,12.5 µg/mL,H37Rv,,0%
c1cc2c(s1)CCOC21CCN(Cc2ccc3c(c2)OCCO3)CC1,fold resistance,fluorescence,,H37Rv,MmpL3: Val713Met,125
C/C(=N/NC(=S)N1CCC(c2ccccc2)CC1)c1nccnc1C,MIC,,,TAC-R,,3.1 µg/mL
NNC(=O)C(c1ccccc1)c1ccccc1,MIC,,,BCG,,100 µg/mL
Cn1c([N+](=O)[O-])cnc1/C=C1\CCc2cc(OCCN3CCCC3)ccc2C1=O,inhibition,resazurin,6.25 µg/mL,H37Rv,,-6%
Oc1ccccc1NC(=S)Nc1ncc(C2CCC2)o1,MIC,agar,,MDR clinical isolate,,10.81 µM
O=C(NCc1ccccc1C(F)(F)F)c1nnc(-c2ccccn2)[nH]c1=O,MIC,,,H37Rv,,>32 µg/mL
Cc1ccc(/C=C2\CCc3ccccc3C2=O)cc1,inhibition,broth dilution / resazurin,12.5 µg/mL,H37Rv,,0%
Cc1cn([C@H]2C[C@H](N=[N+]=[N-])[C@@H](COC(=O)CNC(=O)c3cnccn3)O2)c(=O)[nH]c1=O,EC50,BACTEC,,H37Rv (ATCC 27294),,90 µg/mL
O=C(O)c1cn(C2CC2)c2cc(N3CCN(c4ccccc4)CC3)c(F)cc2c1=O,MIC90,,,,,4 µg/mL
COC(=O)[C@H]1[C@H]2C[C@@H]3c4[nH]c5cc(OC)ccc5c4CCN3C[C@H]2C[C@@H](OC(=O)c2cc(OC)c(OC)c(OC)c2)[C@@H]1OC,MIC50,,,,,8 µg/mL
FC(F)(F)c1ccccc1NC(=S)Nc1ncc(C2CCC2)o1,MIC,agar,,H37Rv,,0.14 µM
S=C1NC2=C(CSC/C2=C/c2cccc(Br)c2)C(c2cccc(Br)c2)N1,inhibition,BACTEC,12.5 µg/mL,H37Rv,,37%
c1ccc(CN(CCN(Cc2ccccn2)Cc2ccccn2)Cc2ccccn2)nc1,MIC90,,,,,8 µg/mL
CSC1=NC(C(N)=O)C(N)N1C,MIC bound,BACTEC,,H37Rv,,>12.5 µg/mL
CCOC(=O)C1=C(C)N(c2ccc(F)c(Cl)c2)C(=O)NC1c1cccc([N+](=O)[O-])c1,MIC,resazurin,,H37Rv,,>6.25 µg/mL
CC(COc1ccccc1)NC(C)C(O)c1ccc(O)cc1,MIC50,,,,,>128 µg/mL
COc1ccc(CN2CCNCC2)c(OC)c1OC,MIC,visual reading,,H37Rv,,1000 µM
CCCCCCCCCCCCCCCCc1c(C(=O)OC)nc(NN)[nH]c1=O,inhibition,BACTEC,12.5 µg/mL,H37Rv,,0%
NNC(=O)C[n+]1csc(N)n1,MIC,,,BCG,,300 µg/mL
O=C(NCc1ccc(Cl)c(Cl)c1)c1nnc(-c2ccccn2)[nH]c1=O,MIC,,,H37Rv,,>32 µg/mL
CN(C)c1ccc(NC(=S)Nc2ncc(C3CCC3)o2)cc1,MIC,agar,,MDR clinical isolate,,2.78 µM
O=C1NC(CN2CCC(O)CC2)C(=O)NC1CN1CCC(O)CC1,MIC,BACTEC,,H37Rv,,≥12.5 µg/mL
CC1=C(C(=O)Nc2ccccc2Cl)C(c2ccc(Cl)cc2)C(C(=O)Nc2ccccc2Cl)=C(C)N1,EC50,,,H37Rv,,>2.5 µg/mL
Cc1ccc(NC(=S)Nc2ncc(C3CCC3)o2)cc1,MIC,agar,,H37Rv,,6.12 µM
COc1ccc(C2C(C(=O)Nc3ccccc3Cl)=C(C)NC(C)=C2C(=O)Nc2ccccc2Cl)cc1,EC50,,,H37Rv,,>2.5 µg/mL
N#CCC1CC2CN(c3ccc(N4C[C@H](Cn5ccnn5)OC4=O)cc3F)CC2C1,MIC,resazurin,,H37Rv,,2 µg/mL
O=C(ON=C1c2ccccc2C(Br)C(Br)c2ccccc21)c1cc([N+](=O)[O-])cc([N+](=O)[O-])c1,inhibition,BACTEC,12.5 µg/mL,H37Rv,,9%
COc1ccc([C@H]2SC(C)C(=O)N2c2nc(N3CCN(C)CC3)n[nH]2)cc1OC,MIC,resazurin,,H37Rv,,8 µg/mL
CSc1c2c(c(C)c3c1[nH]c1ccccc13)C=NCC2,MIC,resazurin,,H37Rv,,1.56 µg/mL
COc1cccc(/C=C2\CCCc3ccccc3C2=O)c1,inhibition,broth dilution / resazurin,12.5 µg/mL,H37Rv,,8%
CC1S[C@H](c2ccc(Cl)cc2)N(c2nc(N3CCOCC3)n[nH]2)C1=O,MIC,resazurin,,H37Rv,,<6.25 µg/mL
NNC(=O)Cc1c[nH]c2ccccc12,MIC,,,BCG,,60 µg/mL
NC(N)=N[C@H]1[C@H](O)[C@@H](O)[C@H](O[C@@H]2O[C@H](CO)[C@@H](O)[C@H](O)[C@H]2O)[C@@H](N=C(N)N)[C@@H]1O,MIC,,,666,,50 µg/mL
CC1S[C@H](c2ccc3c(c2)OCO3)N(c2nc(N3CCN(C)CC3)n[nH]2)C1=O,MIC,resazurin,,H37Rv,,3.13 µg/mL

6 of the rows above, restated:

| smiles | endpoint | method | tested at | strain | changes | result |
|---|---|---|---|---|---|---|
| COC(=O)[C@H]1[C@H]2C[C@@H]3c4[nH]c5cc(OC)ccc5c4CCN3C[C@H]2C[C@@H](OC(=O)c2cc(OC)c(OC)c(OC)c2)[C@@H]1OC | MIC50 |  |  |  |  | 8 µg/mL |
| FC(F)(F)c1ccccc1NC(=S)Nc1ncc(C2CCC2)o1 | MIC | agar |  | H37Rv |  | 0.14 µM |
| Cc1ccc(NC(=S)Nc2ncc(C3CCC3)o2)cc1 | MIC | agar |  | H37Rv |  | 6.12 µM |
| S=C(Nc1cc(Cl)ccn1)Nc1ncc(C2CCC2)o1 | MIC | agar |  | MDR clinical isolate |  | 0.64 µM |
| O=C(O)c1cn(C2CC2)c2cc(N3CCN(c4ccccc4)CC3)c(F)cc2c1=O | MIC90 |  |  |  |  | 4 µg/mL |
| CC(C)N1CCN(c2cc3c(cc2F)c(=O)c(C(=O)O)cn3C2CC2)CC1 | MIC90 |  |  |  |  | 0.125 µg/mL |

MIC bound: limit read from a one-dose screen. An empty or dashed field is not shown. ECn is the concentration giving n% inhibition of infection, replication or growth. Fold resistance has wild type as its base. Lines come from different laboratories, so protocols vary. MIC50, MIC90 and the like: level of inhibition, or share of isolates inhibited.